Values quoted from earlier work, collected in paper PMC9025269, “Synthesis and Anti-Hepatitis B Activities of 3′-Fluoro-2′-Substituted Apionucleosides” (Molecules, 2022).

Test system: HBV
Design: method as in PMID 21364549
Conditions: long-term administration; lamivudine within five years; cited from earlier work

| Structure (SMILES) | development (incidence) of drug-resistant mutation |
| --- | --- |
| C=C1[C@H](CO)[C@@H](O)C[C@@H]1n1cnc2c(=O)[nH]c(N)nc21 [Compound 1, entecavir, reference compound] | 1.2% |
| Nc1ccn([C@@H]2CS[C@H](CO)O2)c(=O)n1 [Lamivudine, lamivudine] | ≤ 70% |
